# Results published in article PMC7993833, “EDP-938, a novel nucleoprotein inhibitor of respiratory syncytial virus, demonstrates potent antiviral activities in vitro and in a non-human primate model” (PLoS Pathogens, 2021).
# Test system: RSV-A Long
# Assay: In vitro resistance selection by viral passage
# Assay type: cell-based, respiratory syncytial virus
# Details: viral passage with increasing concentrations
row,Compound,concentration reached during selection of resistance mutants
1,O=C(NC1CC1)c1cc2c(s1)-c1ccccc1N(C(=O)c1ccc(NC(=O)c3cccnc3N3CCC4(CC3)COC4)cc1)CC2 [AZ-27],"1,024 x EC50"
2,Cc1cn2nc([C@@H]3CCCCN3C(=O)c3cc(Cl)ccc3NS(C)(=O)=O)cc2nc1N1CC[C@H](N)C1 [GS-5806],"16,384 x EC50"
3,O=C1Nc2ccccc2C(c2ccccc2)=N[C@@H]1Nc1nnc(-c2ncc(C(F)(F)F)cc2N2CCOCC2)o1 [EDP-938],up to 64 x EC50
